Pooled drug test results. Numbers come from NIAID ChemDB, via PubChem.

All rows: growth or infection tests; species: HIV-1; read by: cytopathic effect; endpoint: EC50

ECn: concentration that inhibits the pathogen or its effect by n%. Neighbouring rows are from separate reports. Blank or dashed fields: not listed here.

structure,strain or isolate,cells,mutations,value
Cc1c(O)cccc1C(=O)N[C@@H](CSc1ccc2ccccc2c1)[C@H](O)Cc1ccccc1C(=O)NC(C)(C)C,,CEM,,0.97 µg/mL
Cc1ccc2c(c1)c1ccc(C)cc1c1ccc(CCCCCN3C(=O)CCC3=O)cc21,,MT-4,,30 µM
Cc1cn([C@@H]2C[C@@H](N=[N+]=[N-])[C@H](COP(=O)(O)OC3CCC4(C)C(CCC5C4CC(O)C4(C)C(C(C)CCC(=O)OC[C@@H]6CC[C@H](n7cnc8c(=O)[nH]cnc87)O6)CCC54)C3)O2)c(=O)[nH]c1=O,,MT-4,,0.005 µM
Cc1nc(CCCCCCC(=O)c2ccccc2)n2nc(-n3cncc3C)ccc12,RF,MT-4,,0.01 µM
O=C(O)/C=C/c1ccc[c]([Sb](=[O])([OH])[OH])c1,RF,CEM + CEM-SS,,0.94 µM
O=C(O)c1cc(Cc2ccc(O)c(C(=O)O)c2)ccc1O,,CEM,,>200 µM
OC[C@H]1O[C@@H](Oc2ccc(O)c3cccc(O)c23)[C@H](O)[C@@H](O)[C@@H]1O,IIIB,MT-4,,>100 µg/mL
Fc1cccc(F)c1[C@H]1SCc2nc3ccccc3n21,RF,MT-4,,0.31 µM
Cc1cn([C@H]2C[C@@H](OCP(=O)(O)O)CO2)c(=O)[nH]c1=O,IIIB,MT-4,,6.59 µM
CC(C)(C)NC(=O)c1ccccc1C[C@@H](O)[C@H](CSc1ccc2ccccc2c1)NC(=O)c1cccc2ncccc12,,CEM,,5.7 µg/mL
O=C(OC[C@H]1O[C@@H](OC(=O)c2ccccc2)[C@H](OC(=O)c2ccccc2)[C@@H](O)[C@@H]1O)c1ccccc1,IIIB,MT-4,,>100 µg/mL
Cc1nc(CCCCCCC(=O)c2ccccc2)n2nc(N(C)C)ccc12,RF,MT-4,,1.8 µM
CCN(C)C(=O)Oc1nsnc1-c1c(Cl)cccc1Cl,IIIB,MT-4,,0.0367 µM
Nc1ncnc2c1ncn2[C@@H]1OC[C@H](OCP(=O)(O)O)[C@H]1O,IIIB,MT-4,,>268 µM
C[C@@H]1O[C@@H](Oc2c(-c3cc(O)c(O)c(O)c3)oc3cc(O)cc(O)c3c2=O)[C@H](O)[C@H](O)[C@H]1O,IIIB,MT-4,,>100 µg/mL
Fc1cccc(F)c1C1SCc2nc3ccccc3n21,NDK,MT-4,,0.69 µM
CCCN(C)C(=O)Oc1nsnc1-c1c(Cl)cccc1Cl,IIIB,MOLT-4,,0.007 µM
Fc1cccc(F)c1C1SCc2nc3ccccc3n21,,CEM,RT-Y188H,4.16 µM
CC1=C(C)[C@](CO)(c2ccccc2)C[C@H]1n1cnc2c(N)ncnc21,,MT-4,,61 µg/mL
Cc1nc(CCCCCOCc2ccccc2)n2nc(Cl)ccc12,RF,MT-4,,1.3 µM
Nc1ccn([C@H]2CC[C@@H](CO)O2)c(=O)n1,SK1,CEM + CEM-SS,,0.0254 µM
COC(=O)N[C@H](C(=O)N[C@@H](Cc1ccccc1)[C@@H](O)CN(Cc1ccc(-c2ccccn2)cc1)NC(=O)[C@@H](NC(=O)OC)C(C)(C)C)C(C)(C)C,,MT-4,,0.006 µM
Nc1ncnc2c1ncn2CCOCP(=O)(O)O,IIIB,MT-2,,>50 µM
CC(C)(C)NC(=O)c1ccccc1C[C@@H](O)[C@H](CSc1ccc2ccccc2c1)NC(=O)c1cccc2c1CCNC2,,CEM,,>50 µg/mL
Cc1cn([C@@H]2O[C@H](CO[Si](C)(C)C(C)(C)C)C3(OS(=O)(=O)C=C3N)[C@H]2O[Si](C)(C)C(C)(C)C)c(=O)n(C)c1=O,NNRTI-resistant,CEM,RT-V106A,>15 µM
CC[C@H]1C(=O)Nc2ccc(F)cc2N1C(=O)OC(C)C,C-1 (RT-K101E),CEM,RT-K101E,0.0025 µg/mL
Nc1ccn([C@@H]2OC[C@H](OCP(=O)(O)O)[C@H]2O)c(=O)n1,IIIB,MT-4,,>308 µM
Cc1ccc(N2C(=O)/C(=C/c3ccc(-c4cccc(C(=O)O)c4)o3)SC2=S)cc1,IIIB,MT-2,,2.517 µM
Fc1cccc(F)c1[C@@H]1SCc2nc3ccccc3n21,IIIB,MT-4,,2.32 µM
Cc1cn([C@H]2C[C@H](N=[N+]=[N-])[C@@H](CO)O2)c(=O)[nH]c1=O,IIIB,C8166,,0.00674 µM
CNC(=O)[C@@H](NC(=O)[C@H](OCc1ccc(-c2nccs2)cc1)[C@H](O)[C@@H](O)[C@@H](OCc1ccc(-c2nccs2)cc1)C(=O)N[C@H](C(=O)NC)C(C)C)C(C)C,,MT-4,,0.24 µM
O=c1ccn([C@@H]2OC[C@H](OCP(=O)(O)O)[C@H]2O)c(=O)[nH]1,IIIB,MT-4,,>155 µM
CC[C@H](C)[C@H](NC(=O)[C@H](OCc1ccccc1)[C@H](O)[C@@H](O)[C@@H](OCc1ccccc1)C(=O)N[C@H](C(=O)NC)[C@@H](C)CC)C(=O)NC,,MT-4,,1.17 µM
Cc1cn([C@@H]2O[C@H](CO[Si](C)(C)C(C)(C)C)[C@]3(C(N)=CS(=O)(=O)N3C)[C@H]2O[Si](C)(C)C(C)(C)C)c(=O)n(C)c1=O,,CEM,RT-E138K,>250 µM
Nc1ccn([C@H]2CC[C@@H](CO)O2)c(=O)n1,,,,<0.1 µM
Nc1ncnc2c1ncn2[C@H]1C[C@@H](OCP(=O)(O)O)CO1,IIIB,MT-4,,2.53 µM
O=C(O)c1cc(-c2ccc(/C=C3\SC(=S)N(c4cccc(F)c4)C3=O)o2)ccc1Cl,IIIB,MT-2,,2.213 µM
O=C(CCCCCCc1ncc2ccc(Cl)nn12)c1ccccc1,RF,MT-4,,1 µM
Cc1cn([C@H]2C[C@H](N=[N+]=[N-])[C@@H](CO)O2)c(=O)[nH]c1=O,,,,<1 µM
Cc1cn([C@H]2C[C@H](N=[N+]=[N-])[C@@H](CO)O2)c(=O)[nH]c1=O,IIIB,CEM,,0.0021 µM
O=c1[nH]c(=O)n([C@H]2C[C@H](F)[C@@H](CO)O2)cc1Cl,IIIB,MT-4,,0.7 µM
CCOCn1c(Cc2ccccc2)c(C(C)C)c(=O)[nH]c1=O,B-1 (RT L100V K103R/K Y188H),CEM,RT-L100V K103R/K Y188H,0.011 µg/mL
Cc1c(C(=O)N[C@@H](CSc2ccc3ccccc3c2)[C@H](O)Cc2ccccc2C(=O)NC(C)(C)C)cccc1[N+](=O)[O-],,CEM,,>50 µg/mL
CC(=O)SCCOP(=O)(OCCSC(C)=O)OC[C@@H]1CC[C@H](n2cnc3c(=O)[nH]cnc32)O1,IIIB,CEM + CEM-SS,,1.2 µM
Cc1cn([C@@H]2O[C@H](CO[Si](C)(C)C(C)(C)C)[C@]3(C(N)=CS(=O)(=O)N3C)[C@H]2O[Si](C)(C)C(C)(C)C)c(=O)n(C(=O)OC(C)(C)C)c1=O,,CEM,RT-Y181C,>10 µM
Cc1cn([C@H]2C[C@H](N=[N+]=[N-])[C@@H](CO)O2)c(=O)[nH]c1=O,,MT-4,,0.001 µg/mL
Cc1cn([C@H]2C[C@H](N=[N+]=[N-])[C@@H](CO)O2)c(=O)[nH]c1=O,IIIB,CEM + CEM-SS,,0.0048 µM
Cc1c(N)cccc1C(=O)N[C@@H](CSc1ccc2ccccc2c1)[C@H](O)Cc1ccccc1C(=O)NC(C)(C)C,,CEM,,5 µg/mL
CC(C)Nc1cccnc1N1CCN(C(=O)c2cc3cc(NS(C)(=O)=O)ccc3[nH]2)CC1,NNRTI-resistant,CEM,RT-L100I,2.88 µM

6 of the rows above, restated:

structure	strain or isolate	cells	mutations	value
O=C(O)c1cc(Cc2ccc(O)c(C(=O)O)c2)ccc1O		CEM		>200 µM
Cc1cn([C@@H]2C[C@@H](N=[N+]=[N-])[C@H](COP(=O)(O)OC3CCC4(C)C(CCC5C4CC(O)C4(C)C(C(C)CCC(=O)OC[C@@H]6CC[C@H](n7cnc8c(=O)[nH]cnc87)O6)CCC54)C3)O2)c(=O)[nH]c1=O		MT-4		0.005 µM
Nc1ccn([C@H]2CC[C@@H](CO)O2)c(=O)n1	SK1	CEM + CEM-SS		0.0254 µM
Cc1c(N)cccc1C(=O)N[C@@H](CSc1ccc2ccccc2c1)[C@H](O)Cc1ccccc1C(=O)NC(C)(C)C		CEM		5 µg/mL
CC(C)(C)NC(=O)c1ccccc1C[C@@H](O)[C@H](CSc1ccc2ccccc2c1)NC(=O)c1cccc2c1CCNC2		CEM		>50 µg/mL
Nc1ccn([C@H]2CC[C@@H](CO)O2)c(=O)n1				<0.1 µM